Reference: paper PMC4549179, “Mutations in the DI-DII Linker of Human Parainfluenza Virus Type 3 Fusion Protein Result in Diminished Fusion Activity” (PLoS ONE, 2015)

B1: HPIV3 fusion (F) protein S370A (natural protein)
chain: not shown
modifications: cell-surface protein biotinylated with EZ-Link sulfo-NHS-SS-biotin
B2: HPIV3 fusion (F) protein V373A (natural protein)
chain: not shown
modifications: cell-surface protein biotinylated with EZ-Link sulfo-NHS-SS-biotin

Target: Human parainfluenza virus type 3 hemagglutinin-neuraminidase (HN) protein (human parainfluenza virus type 3, cell-surface protein biotinylated with EZ-Link sulfo-NHS-SS-biotin)
Experiment: cell-based or functional assay

Row | Binder | syncytium formation in BHK-21 cells coexpressing mutant F and HN
1 | B1 | < 5 % of the wt F and HN level
2 | B2 | < 5 % of the wt F and HN level
